This test relates to antibodies with Fc domains (trastuzumab). As to the kind of experiment: SPR binding affinity of Z-M protein variants and antibody (His capture, CM5 chip). The note with it: 1:1 (Langmuir) fit.

The text below walks through data of patent publication EP4678648A1, “SYNTHESIS METHOD OF ANTIBODY-DRUG CONJUGATES USING PROXIMITY EFFECT-BASED SITE-SELECTIVE ANTIBODY LABELING” (Sogang University Research Business Development Foundation, priority 2023, dated 2024).

Consider Z-M_K33AzK-PyOx, for which the “Ka” value (SPR association rate) was 196600 M⁻¹ s⁻¹. For the same substance, the “Kd” value (SPR dissociation rate) is 0.0006843 s⁻¹.
